We go through 34 compounds from ChEMBL document CHEMBL5390309, “Characterization of 2,4-Dianilinopyrimidines Against Five P. falciparum Kinases PfARK1, PfARK3, PfNEK3, PfPK9, and PfPKB” (2023).

The test system of assay [1] is Plasmodium falciparum. Put plainly: Inhibition of Plasmodium falciparum ARK1 assessed as remaining activity at 1 uM incubated for 2 hrs by luciferin-reagent based luminometer analysis relative to control.
Assay [2] deals with Plasmodium falciparum. Put plainly: Inhibition of Plasmodium falciparum PK9 assessed as remaining activity at 1 uM incubated for 2 hrs by luciferin-reagent based luminometer analysis relative to control.
Assay [3] has as its system Plasmodium falciparum. Put plainly: Inhibition of Plasmodium falciparum NEK3 assessed as remaining activity at 1 uM incubated for 2 hrs by luciferin-reagent based luminometer analysis relative to control.
Assay [4] has as its system Plasmodium falciparum. Put plainly: Inhibition of Plasmodium falciparum ARK3 assessed as remaining activity at 1 uM incubated for 2 hrs by luciferin-reagent based luminometer analysis relative to control.
Assay [5] relates to Plasmodium falciparum. Put plainly: Inhibition of Plasmodium falciparum PKB assessed as remaining activity at 1 uM incubated for 2 hrs by luciferin-reagent based luminometer analysis relative to control.

Regarding `CCOC(=O)c1cnc(Nc2ccc(N3CCOCC3)cc2OC)nc1Nc1ccccc1NS(C)(=O)=O`, the Activity in the assay with Plasmodium falciparum [1] is 100%; with Plasmodium falciparum [2] it was 100%; in the assay on Plasmodium falciparum [3], 65%; with Plasmodium falciparum [4], 96%; in the assay with Plasmodium falciparum [5], 93%.
Regarding `COc1cc(N2CCOCC2)ccc1Nc1ncc(Cl)c(Nc2ccccc2NS(=O)(=O)CC(C)C)n1`, the Activity in the assay with Plasmodium falciparum [1] turned out to be 77%; in the assay on Plasmodium falciparum [2], 84%; in the assay on Plasmodium falciparum [3] it was 83%; in the assay on Plasmodium falciparum [4], 51%; with Plasmodium falciparum [5], 70%.
On to `Cc1cc(Nc2ncc(Cl)c(Nc3ccccc3NS(C)(=O)=O)n2)ccc1N1CCOCC1`, for which the Activity with Plasmodium falciparum [1] is 20%; with Plasmodium falciparum [2], 3%; in the assay with Plasmodium falciparum [3] it was 7%; with Plasmodium falciparum [4] it was 35%; with Plasmodium falciparum [5], 5%.
Consider `CCS(=O)(=O)Nc1ccccc1Nc1nc(Nc2ccc(N3CCOCC3)cc2OC)ncc1Cl`, for which the Activity in the assay with Plasmodium falciparum [1] is 79%; in the assay with Plasmodium falciparum [2], 39%; in the assay on Plasmodium falciparum [3] it was 40%; with Plasmodium falciparum [4], 40%; with Plasmodium falciparum [5] it was 7%.
Regarding `CS(=O)(=O)Nc1ccccc1Nc1nc(Nc2ccc(N3CCOCC3)cc2Cl)ncc1Cl`, the Activity in the assay with Plasmodium falciparum [1] was 84%; in the assay with Plasmodium falciparum [2] it was 32%; with Plasmodium falciparum [3] it was 7%; in the assay on Plasmodium falciparum [4], 74%; with Plasmodium falciparum [5], 0%.
For `COc1cc(N2CCOCC2)ccc1Nc1ncc(N)c(Nc2ccccc2NS(C)(=O)=O)n1`, the Activity with Plasmodium falciparum [1] was 97%; with Plasmodium falciparum [2] it was 100%; in the assay on Plasmodium falciparum [3], 93%; in the assay with Plasmodium falciparum [4], 100%; in the assay on Plasmodium falciparum [5], 96%.
In the case of `COc1cc(N2CCOCC2)ccc1Nc1nccc(Nc2ccccc2NS(C)(=O)=O)n1`, the Activity in the assay on Plasmodium falciparum [1] was 100%; in the assay with Plasmodium falciparum [2], 100%; in the assay with Plasmodium falciparum [3], 100%; with Plasmodium falciparum [4], 90%; in the assay on Plasmodium falciparum [5], 100%.
`COc1cc(N2CCOCC2)ccc1Nc1ncnc(Nc2ccccc2NS(C)(=O)=O)n1`: the Activity stood at 95% in the assay with Plasmodium falciparum [1]; 100% in the assay with Plasmodium falciparum [2]; 82% with Plasmodium falciparum [3]; 100% with Plasmodium falciparum [4]; 78% in the assay on Plasmodium falciparum [5].
Consider `COc1cc(N2CCOCC2)ccc1Nc1ncc(OC)c(Nc2ccccc2NS(C)(=O)=O)n1`, for which the Activity turned out to be 75% in the assay on Plasmodium falciparum [1]; 81% in the assay on Plasmodium falciparum [2]; 40% with Plasmodium falciparum [3]; 83% in the assay with Plasmodium falciparum [4]; 44% in the assay with Plasmodium falciparum [5].
The corresponding values for `COc1cc(N2CCOCC2)ccc1Nc1ncc(C#N)c(Nc2ccccc2NS(C)(=O)=O)n1` are 79%, 73%, 14%, 100% and 20%.
The corresponding values for `COc1cc(N2CCOCC2)ccc1Nc1ncc(O)c(Nc2ccccc2NS(C)(=O)=O)n1` are 100%, 100%, 95%, 100% and 100%.
The corresponding values for `CCOCc1cnc(Nc2ccc(N3CCOCC3)cc2OC)nc1Nc1ccccc1NS(C)(=O)=O` are 97%, 100%, 100%, 100% and 89%.
In the case of `COc1cc(N2CCOCC2)ccc1Nc1ncc(C(F)(F)F)c(Nc2ccccc2N)n1`, the Activity was 81% in the assay on Plasmodium falciparum [1]; 83% in the assay on Plasmodium falciparum [2]; 84% in the assay with Plasmodium falciparum [3]; 86% in the assay on Plasmodium falciparum [4]; 61% in the assay on Plasmodium falciparum [5].
As for `COc1cc(N2CCOCC2)ccc1Nc1ncc(Cl)c(Nc2ccccc2NS(=O)(=O)c2cn(C)cn2)n1`, the Activity in the assay with Plasmodium falciparum [1] stood at 70%; in the assay with Plasmodium falciparum [2] it was 100%; with Plasmodium falciparum [3], 56%; in the assay with Plasmodium falciparum [4], 77%; in the assay on Plasmodium falciparum [5] it was 65%.
The corresponding values for `CCOc1cc(N2CCOCC2)ccc1Nc1ncc(Cl)c(Nc2ccccc2NS(C)(=O)=O)n1` are 100%, 78%, 49%, 73% and 46%.
The corresponding values for `CS(=O)(=O)Nc1ccccc1Nc1nc(Nc2ccc(N3CCOCC3)cc2)ncc1Cl` are 21%, 6%, 2%, 42% and 9%.
As for `CS(=O)(=O)Nc1ccccc1Nc1nc(Nc2ccc(N3CCOCC3)cc2O)ncc1Cl`, the Activity came out at 69% in the assay with Plasmodium falciparum [1]; 49% in the assay on Plasmodium falciparum [2]; 11% in the assay with Plasmodium falciparum [3]; 81% in the assay with Plasmodium falciparum [4]; 7% in the assay on Plasmodium falciparum [5].
Consider `COc1cc(N2CCOCC2)ccc1Nc1ncc(C2CC2)c(Nc2ccccc2NS(C)(=O)=O)n1`, for which the Activity in the assay with Plasmodium falciparum [1] stood at 100%; in the assay on Plasmodium falciparum [2] it was 100%; with Plasmodium falciparum [3], 100%; in the assay with Plasmodium falciparum [4], 100%; in the assay on Plasmodium falciparum [5], 48%.
`COc1cc(N2CCOCC2)ccc1Nc1ncc(C(F)(F)F)c(Nc2ccccc2NS(C)(=O)=O)n1`: the Activity is 58% in the assay with Plasmodium falciparum [1]; 10% in the assay on Plasmodium falciparum [2]; 22% in the assay with Plasmodium falciparum [3]; 47% with Plasmodium falciparum [4]; 6% in the assay with Plasmodium falciparum [5].
The corresponding values for `COc1cc(N2CCOCC2)ccc1Nc1ncc(C)c(Nc2ccccc2NS(C)(=O)=O)n1` are 100%, 88%, 44%, 82% and 24%.
The corresponding values for `COc1cc(N2CCOCC2)ccc1Nc1ncc(F)c(Nc2ccccc2NS(C)(=O)=O)n1` are 99%, 97%, 68%, 88% and 55%.
Consider `CS(=O)(=O)Nc1ccccc1Nc1nc(Nc2ccc(N3CCOCC3)c(Cl)c2)ncc1Cl`, for which the Activity in the assay on Plasmodium falciparum [1] stood at 19%; in the assay on Plasmodium falciparum [2], 8%; in the assay on Plasmodium falciparum [3] it was 14%; in the assay on Plasmodium falciparum [4], 44%; in the assay with Plasmodium falciparum [5], 6%.
On to `Cc1cc(N2CCOCC2)ccc1Nc1ncc(Cl)c(Nc2ccccc2NS(C)(=O)=O)n1`, for which the Activity with Plasmodium falciparum [1] is 43%; in the assay with Plasmodium falciparum [2] it was 20%; in the assay with Plasmodium falciparum [3], 7%; in the assay with Plasmodium falciparum [4], 67%; in the assay with Plasmodium falciparum [5], 10%.
In the case of `COc1cc(N2CCOCC2)ccc1Nc1ncc(Cl)c(Nc2ccccc2NC(C)=O)n1`, the Activity came out at 65% with Plasmodium falciparum [1]; 70% in the assay on Plasmodium falciparum [2]; 93% with Plasmodium falciparum [3]; 100% in the assay on Plasmodium falciparum [4]; 66% in the assay with Plasmodium falciparum [5].
The corresponding values for `COc1cc(N2CCOCC2)ccc1Nc1ncc(Cl)c(Nc2ccccc2NS(=O)(=O)NC(C)C)n1` are 80%, 90%, 80%, 45% and 82%.
Turning to `COc1cc(N2CCOCC2)ccc1Nc1ncc(Cl)c(-n2c(=O)[nH]c3ccccc32)n1`, the Activity with Plasmodium falciparum [1] worked out at 95%; in the assay with Plasmodium falciparum [2], 98%; with Plasmodium falciparum [3], 97%; in the assay with Plasmodium falciparum [4], 76%; in the assay with Plasmodium falciparum [5], 100%.
Turning to `COc1cc(N2CCOCC2)ccc1Nc1ncc(Cl)c(Nc2ccccc2NS(=O)(=O)c2ccccc2)n1`, the Activity in the assay on Plasmodium falciparum [1] turned out to be 73%; in the assay on Plasmodium falciparum [2], 85%; in the assay on Plasmodium falciparum [3], 49%; in the assay with Plasmodium falciparum [4], 31%; in the assay on Plasmodium falciparum [5], 60%.
Take `COc1cc(N2CCOCC2)ccc1Nc1ncc(Cl)c(Nc2ccccc2NC(N)=O)n1`: the Activity was 96% in the assay with Plasmodium falciparum [1]; 11% in the assay with Plasmodium falciparum [2]; 81% with Plasmodium falciparum [3]; 87% in the assay on Plasmodium falciparum [4]; 17% in the assay with Plasmodium falciparum [5].
The corresponding values for `COc1cc(Nc2ncc(Cl)c(Nc3ccccc3NS(C)(=O)=O)n2)ccc1N1CCOCC1` are 9%, 4%, 6%, 11% and 0%.
The corresponding values for `COc1cc(N2CCOCC2)ccc1Nc1ncc(I)c(Nc2ccccc2NS(C)(=O)=O)n1` are 75%, 6%, 23%, 49% and 9%.
The corresponding values for `CS(=O)(=O)Nc1ccccc1Nc1nc(Nc2ccc(N3CCOCC3)cc2F)ncc1Cl` are 38%, 20%, 8%, 46% and 8%.
With `COc1cc(N2CCOCC2)ccc1Nc1ncc(COCC(F)(F)F)c(Nc2ccccc2NS(C)(=O)=O)n1`, the Activity in the assay with Plasmodium falciparum [1] was 100%; in the assay with Plasmodium falciparum [2], 100%; in the assay with Plasmodium falciparum [3] it was 67%; in the assay with Plasmodium falciparum [4], 97%; with Plasmodium falciparum [5] it was 100%.
In the case of `COc1cc(N2CCOCC2)ccc1Nc1ncc(Br)c(Nc2ccccc2NS(C)(=O)=O)n1`, the Activity with Plasmodium falciparum [1] was 84%; in the assay on Plasmodium falciparum [2], 19%; in the assay on Plasmodium falciparum [3], 20%; in the assay on Plasmodium falciparum [4] it was 45%; with Plasmodium falciparum [5] it was 10%.
The corresponding values for `COc1cc(N2CCOCC2)ccc1Nc1ncc(N(C)C)c(Nc2ccccc2NS(C)(=O)=O)n1` are 85%, 89%, 46%, 100% and 22%.
